Data: patent US20160287666A1
Changes are numbered by the printed parent chain.

B1: NV1G1954 (peptide)
peptide: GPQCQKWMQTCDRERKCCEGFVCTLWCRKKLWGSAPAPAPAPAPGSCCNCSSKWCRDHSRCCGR
modifications: not checked
B2: NV1G1974 (peptide)
peptide: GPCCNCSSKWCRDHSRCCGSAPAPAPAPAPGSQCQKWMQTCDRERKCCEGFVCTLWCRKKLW
modifications: not checked
B3: NV1G1972 (peptide)
peptide: GPGWCGDPGATCGKLRLYCCSGFCDAYTKTCKDKSSAGGGGSAPAPAPAPAPAPAPAPAPAPAPAPAPAPAPGGGGSQCQKWMQTCDRERKCCEGFVCTLWCRKKLW
modifications: not checked
B4: NV1G1981 (peptide)
peptide: GPRRRRRRRRRRRQCQKWMQTCDRERKCCEGFVCTLWCRKKLW
modifications: not checked
B5: NV1G1862 (peptide)
peptide: GPYCQKWMQTCDAERKCCEGFSCTLWCKKKLW
modifications: not checked
B6: NV1G1519 (peptide)
peptide: B5 peptide with Y3Q, E14R, S22V, T24R
modifications: not checked
B7: NV1G1771 (peptide)
peptide: GPQCQAWMQTCDRERKCCEGFVCTLWCRKKLW
modifications: not checked
B8: NV1G1778 (peptide)
peptide: B7 peptide with A6D
modifications: not checked
B9: NV1G1806 (peptide)
peptide: B7 peptide with A6K, K30T
modifications: not checked
B10: NV1G1867 (peptide)
peptide: B7 peptide with Q3A, A6K, E14N, V22S
modifications: not checked
B11: NV1G1922 (peptide)
peptide: B7 peptide with A6K, R13E
modifications: not checked
B12: NV1G1793 (peptide)
peptide: B7 peptide with A6K, W32D
modifications: not checked
B13: NV1G1844 (peptide)
peptide: B7 peptide with A6K, D12K, E14K, R15E
modifications: not checked
B14: NV1G1851 (peptide)
peptide: B7 peptide with A6K, G20R
modifications: not checked
B15: NV1G1850 (peptide)
peptide: B7 peptide with A6K, K30S
modifications: not checked
B16: NV1G1980 (peptide)
peptide: GPQRFVTGHFGGLYPANGQCQKWMQTCDRERKCCEGFVCTLWCRKKLW
modifications: not checked
B17: NV1G1969 (peptide)
peptide: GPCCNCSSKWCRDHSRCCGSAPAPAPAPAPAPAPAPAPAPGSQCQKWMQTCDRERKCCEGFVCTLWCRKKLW
modifications: not checked
B18: NV1G1961 (peptide)
peptide: GPSPGARAFAPAPAQCQKWMQTCDRERKCCEGFVCTLWCRKKLW
modifications: not checked
B19: NV1G2057 (peptide)
peptide: GPQCQKWMQTCDRERKCCEGFVCTLWCRKKLWGSAPAPAPAPAPGSCCNCSSKWCRDHSRCC
modifications: not checked
B20: NV1G2043 (peptide)
peptide: GPCRTIGPSVCQCQKWMQTCDRERKCCEGFVCTLWCRKKLW
modifications: not checked

Molecular target: human Nav1.7 (human), Q15858
Assay: cell-based or functional assay

In order of falling Nav1.7 IC50 (nM), FLIPR Tetra:
1. B1  60.9 nM
2. B19  50.6 nM

In order of rising Nav1.7 IC50 (nM), FLIPR Tetra membrane depolarization:
1. B18  68 nM
2. B7  70.6 nM
3. B10  76 nM
4. B9  79.1 nM
5. B12  80.9 nM
6. B5  100 nM
7. B17  100 nM
8. B16  101 nM
9. B4  102 nM
10. B15  102 nM
11. B11  108 nM
12. B14  108 nM
13. B8  109 nM
14. B2  110 nM
15. B3  110 nM
16. B13  180 nM

Work on B6 yielded a hNav1.7 QP % blk @ 10 nM of 52.3%.

With B19 the hNav1.7 QP % blk @ 30 nM was 22.2%.

B19 showed a hNav1.7 TETRA IC50 of 50.6 nM.

Binder B20 has a hNav1.7 QP IC50 of 58.7 nM.
